Experiments:
[1] = target: human Kv1.1 (human) (UniProt Q09470); experiment: cell-based or functional assay
[2] = target: hKv1.4 (human) (UniProt P22459); experiment: cell-based or functional assay
[3] = target: hKv1.7 (human) (UniProt Q96RP8); experiment: cell-based or functional assay
[4] = target: human Kv1.3 (human) (UniProt P22001); experiment: cell-based or functional assay
[5] = target: hKv1.6 (human) (UniProt P17658); experiment: cell-based or functional assay
[6] = target: human Kv1.2 (human) (UniProt P16389); experiment: cell-based or functional assay
[7] = target: hKCa3.1 (human) (UniProt O15554); experiment: cell-based or functional assay
[8] = target: human Kv1.3 (human) (UniProt P22001); experiment: competitive binding (Agitoxin-2-Cys-TAMRA), FACS, hKv1.3/HEK

synthetic peptide p261 (peptide; modification not given)
IC50, patch clamp, hKv1.1/CHO [1]: 3.3 nM | IC50, patch clamp, hKv1.4/CHO [2]: > 300 nM | IC50, patch clamp, hKv1.7/CHO [3]: > 100 nM | IC50, T cell inhibition, primary human CD4+ T cell [4]: 0.02 nM | IC50, patch clamp, Kv1.3/human CD4+ T-cell [4]: 0.016 nM | IC50, patch clamp, hKv1.3/CHO [4]: 0.02 nM | IC50, patch clamp, hKv1.3/CHO, in 5% FCS [4]: 0.013 nM | IC50, patch clamp, primary human CD4+ T cell [4]: 0.016 nM | IL-2 inhibition IC50, human CD4+ T-cell [4]: 0.02 nM | IC50, patch clamp, hKv1.6/CHO [5]: 0.32 nM | IC50, patch clamp, hKv1.2/CHO [6]: 68 nM | IC50, patch clamp, KCa3.1/CHO [7]: > 100 nM | IC50, patch clamp, hKCa3.1/CHO [7]: > 100 nM | IC50 [8]: 1.53 nM

From patent US20190062383A1, “Kv1.3 Antagonists and Methods of Use” (published 2019)
